Anti-infective test results gathered from many reports (values: NIAID ChemDB through PubChem).

Common to all: growth or infection tests

Conditions beyond the fields shown may differ between rows.

smiles	species	strain	cell line	method	read-out	dose	result
CCOC(=O)c1cnc(NCCCCNc2ccnc3cc(Cl)ccc23)nc1C	Cryptococcus gattii	L-28/02			MIC99		8 µg/mL
O=C(NCc1ccccc1-c1cocn1)c1c2n(c(=O)n1-c1ccc(OC3CC3)cc1)CCN(C(=O)c1ccc(Br)c(Cl)c1)C2	Hepatitis B virus		HepG2.117	PCR	EC50		<0.1 µM
Oc1ccccc1C=Nc1ccccc1O	Cryptococcus gattii	547/OTTI-97-PI-10			MIC99		11.3 µg/mL
O=C(NCc1ccccc1)c1c2n(c(=O)n1-c1ccc3c(c1)OCO3)CCN(C(=O)c1ccc(Cl)c(Cl)c1)C2	Hepatitis B virus		HepG2.117	PCR	EC50		0.5–5 µM
CCOC(=O)c1ccc(OCCC2CCN(c3ccc(C)nn3)CC2)cc1	Rhinovirus	JM1 (ICAM-1 receptor group 91)	KB	neutral red	EC50		0.271 µM
O=c1[nH]c(=O)n([C@@H]2O[C@H](CO)[C@@H](O)[C@@H]2O)cc1/C=C/Br	Varicella zoster virus	Asahikawa	HELF	plaque count	inhibition	0.01 µg/mL	100%
COc1ccc(-n2c(C(=O)NCc3ccc(C(C)C)cc3)c3n(c2=O)CCN(C(=O)c2ccc(Br)c(Cl)c2)C3)cc1	Hepatitis B virus		HepG2.117	PCR	EC50		0.1–0.5 µM
CCC(CC)O[C@@H]1C=C(C(=O)O)C[C@H](N)[C@H]1NC(C)=O	Influenza B virus	Isolate C29C	MDCK	plaque count	EC50		0.045 µg/mL
CCC(CC)O[C@@H]1C=C(C(=O)O)C[C@H](N)[C@H]1NC(C)=O	Influenza A virus	Influenza A/Washington/897/80 (H3N2)	MDCK		EC50		<0.01 µM
Nc1ccc2cc(S(=O)(=O)O)cc(S(=O)(=O)O)c2c1	Rhinovirus		Human embryonic lung cells	cytopathic effect	inhibition	10 µg/mL	55%
CCOC(=O)c1c(C)nc(NCCCNc2ccnc3cc(Cl)ccc23)nc1-c1ccccc1	Cryptococcus neoformans	27JF			MIC99		4 µg/mL
O=c1[nH]c(=O)n([C@@H]2O[C@H](CO)[C@@H](O)[C@@H]2O)cc1/C=C/Cl	Varicella zoster virus	KANNO	HELF	plaque count	inhibition	0.001 µg/mL	100%
O=S(=O)(O)CO	Adenovirus	TYPE 3	Human embryonic lung cells	cytopathic effect	inhibition	10 µg/mL	0%
Nc1nc(=O)n([C@@H]2O[C@H](CO)[C@@H](O)[C@@H]2F)cc1I	Varicella zoster virus	OKA	HELF	plaque count	inhibition	0.01 µg/mL	11%
CCOC(=O)/C=C/[C@H](C[C@@H]1CCNC1=O)NC(=O)[C@@H](CC(=O)[C@@H](NC(=O)c1cc(C)on1)C(C)C)Cc1ccc(F)cc1	Rhinovirus	Isolate 21	OHIO HELA-I	cytopathic effect / visual reading	EC50		<0.01 µg/mL
O=S(=O)(O)c1ccc2cc(O)c(S(=O)(=O)O)cc2c1	Herpes simplex virus		Human conjunctiva cells	cytopathic effect	inhibition	5 µg/mL	0%
Nc1ncnc2c1ncn2C=C1CC1CO	Human cytomegalovirus	VR4991 (ganciclovir-resistant)		plaque count	EC50		1.7 µM
Nc1ccc2cc([N+](=O)[O-])cc(S(=O)(=O)[O-])c2c1	Herpes simplex virus		Human amnion AV3 cells	cytopathic effect	inhibition	5 µg/mL	0%
CCc1cn([C@@H]2O[C@H](CO)[C@@H](O)[C@@H]2O)c(=O)[nH]c1=O	Varicella zoster virus	OKA	HELF	plaque count	inhibition	1000 µg/mL	53%
Oc1ccccc1N=Cc1ccc2c(c1)OCO2	Cryptococcus neoformans	C-3-1			MIC99		4 µg/mL
O=C(Nc1ccc2c(O)c(N=Nc3ccc(N=Nc4ccc(S(=O)(=O)O)cc4)cc3)c(S(=O)(=O)O)cc2c1)c1ccccc1	Adenovirus	TYPE 3	Human embryonic lung cells	cytopathic effect	inhibition	50 µg/mL	20%
O=[N+]([O-])c1ccc(C=Nc2ccccc2O)cc1	Cryptococcus neoformans	96806		broth dilution	MIC		11.3 µg/mL
C=Cc1cn([C@@H]2O[C@H](CO)[C@@H](O)[C@@H]2O)c(=O)[nH]c1=O	Varicella zoster virus	YS	HELF	plaque count	inhibition	0.1 µg/mL	3%
O=C(NCc1ccc(Cl)cc1)c1c[nH]c2ccc(C#CCO)cc2c1=O	Varicella zoster virus	MAG		plaque count	EC50		0.4 µM
O=S(=O)([O-])c1ccc(O)cc1	Adenovirus	TYPE 3	Human embryonic lung cells	cytopathic effect	inhibition	50 µg/mL	0%
C=CCc1ccc(OC)c(OC)c1	Candida tropicalis	3178		turbidity	MIC90		345 µg/mL
Oc1ccccc1N=Cc1ccc(F)cc1	Cryptococcus gattii	L24/01			MIC99		8 µg/mL
CC(C)Oc1ccc(-n2c(C(=O)NCc3ccccc3)c3n(c2=O)CCN(C(=O)/C=C/c2ccccc2Cl)C3)cc1	Hepatitis B virus		HepG2.117	PCR	EC50		>5 µM

3 of the rows above, restated:

smiles,species,strain,cell line,method,read-out,dose,result
O=c1[nH]c(=O)n([C@@H]2O[C@H](CO)[C@@H](O)[C@@H]2O)cc1/C=C/Br,Varicella zoster virus,Asahikawa,HELF,plaque count,inhibition,0.01 µg/mL,100%
O=[N+]([O-])c1ccc(C=Nc2ccccc2O)cc1,Cryptococcus neoformans,96806,,broth dilution,MIC,,11.3 µg/mL
CCOC(=O)c1cnc(NCCCCNc2ccnc3cc(Cl)ccc23)nc1C,Cryptococcus gattii,L-28/02,,,MIC99,,8 µg/mL

ECn: concentration that inhibits the pathogen or its effect by n%. Percent inhibition refers to the dose given; in toxicity tests it is the harm to the cells. MIC50, MIC90 and the like: level of inhibition, or share of isolates inhibited. Two numbers with a dash give a range or band. An empty or dashed field is not shown.